Patent publication US20070172933A1, “Thermally stable amidases” (priority 2003, published 2007)

Experiments:
[1] = pH dependence of the amidase activity (hydrolysis of benzamide); format: biochemical, Pseudonocardia thermophila
[2] = Temperature dependence of the amidase activity; format: biochemical, Pseudonocardia thermophila

B1: amidase: thermally stable amidase purified from Pseudonocardia thermophila (DSMZ 43832); SEQ ID No. 1, 2, 3 (protein, listed as Pseudonocardia thermophila)
chain 1: IHMPDPDAV
chain 2: DGLPVGLMIVGKHF
chain 3: MIHMPDPDAVARMAAEGRFGIPVVVICRTYHDLGHRPARLVEQGRRAVRGGGPHPAAALVDPPRRRGRQARRVGGADLDHRNLGGAARRPHGRGQDNVAVAGVPMMNGSRTLEGFVPAEDATVVSRLLAAGATIAGKSVCEDLCFSGGSHTSKPGTVHNPWDMSRSAGGSSSGSGALVAAGEVDMAIGGDQGGSIRIPSAYCGTVGHKPTHGLVPYTGGFPIEQSIDHLGPITRTVADAALMLSVIAGRDGLDPRQPDVVEVQDYVGALAESVSGLRIGVLQEGFGHPNSEPEVDDTVRAAVGTLREAGFTVEDVSVPWHLHATAIWDVLATEGGLWQMVEGNAYGMHWKGHYDPSLIAYYGRKWREDPAQFSETVKLVALAGRYALTTQYGRHYAMARNLAPKLVAAYDAALSNYDVLVMPTLPMRATVLPGPDAPVEEILARGLEMLANTAPFDVTGHPACSVPAGLADGLPVGLMIVGKHFDDATVLKVANAFEQAVGGFPTPAAZ
pH opt. ([1]; Table 4, inventive amidase): 7.0
pH optimum ([1]; benzamide 5 mM, 70° C., FIG. 4): about 7
T opt. in ° C. ([2]; Table 4, inventive amidase): 70 °C
temperature optimum ([2]; pH 7.2, 30° C. to 90° C., FIG. 3): approximately 70 °C
